Measured values: publication PMC3726044 (Biochemistry, 2013)

Columns and labels:
[1] = test system: C[C@@H](C(=O)SCCNC(=O)CCNC(=O)[C@H](O)C(C)(C)COP(=O)(O)OP(=O)(O)OC[C@H]1O[C@@H](n2cnc3c(N)ncnc32)[C@H](O)[C@@H]1OP(=O)(O)O)[C@H]1CC[C@H]2C(=O)CCC[C@]12C; assay: purified protein; details: pH 8.5; 25.0 °C
[2] = test system: C[C@H](C(=O)SCCNC(=O)CCNC(=O)[C@H](O)C(C)(C)COP(=O)(O)OP(=O)(O)OC[C@H]1O[C@@H](n2cnc3c(N)ncnc32)[C@H](O)[C@@H]1OP(=O)(O)O)[C@H]1CC[C@H]2[C@@H]3CCC4=CC(=O)CC[C@]4(C)[C@H]3CC[C@]12C; assay: purified protein; details: pH 8.5; 25.0 °C

ChsE1-ChsE2 (Mycobacterium tuberculosis H37Rv)
Km [1]: 86 ± 7 µM | kcat/Km [1]: 980 M⁻¹ s⁻¹ | Km [2]: 5.3 ± 0.9 µM | kcat/Km [2]: 250000 M⁻¹ s⁻¹
